Assay: Selectivity index, ratio of CC50 for African green monkey Vero cells to IC50 for MERS-CoV/KOR/KNIH/002_05_2015 infected in African green monkey Vero cells expressing viral spike protein
Assay type: toxicity
Settings: read-out: Ratio CC50/IC50

| Structure (SMILES) | selectivity ratio |
| --- | --- |
| CC(=O)c1c(NC(C)C)[nH]c2c(C(F)(F)F)cc(Cl)cc2c1=O | 33 |
| CC(=O)c1c(Nc2ccc(F)cc2F)[nH]c2c(F)cc(Cl)cc2c1=O | 26 |
| CC(C)C(=O)c1c(Nc2ccc(F)cc2F)[nH]c2c(Cl)cc(Cl)c(Cl)c2c1=O | 231 |
